Measured values from several laboratories, pooled; numbers as filed in NIAID ChemDB.

Common to all: growth or infection tests; agent: Parainfluenza virus; cells: VERO; read-out: EC50

ECn is the concentration giving n% inhibition of infection, replication or growth. Blank or dashed fields: not listed here. Conditions beyond the fields shown may differ between rows.

smiles	strain or isolate	method	value
c1ccc(-c2nn3c(-c4cn(-c5ccccc5)nc4-c4ccccc4)nnc3s2)cc1	TYPE 3	cytopathic effect	>16 µg/mL
C=C(N=CC)c1nc(-c2ccc(C)cc2)n([C@@H]2O[C@H](CO)[C@@H](O)[C@H]2O)n1	TYPE 3	cytopathic effect	>40 µg/mL
CSc1ncnc2c1cnn2Cc1cnnn1CCCCO	TYPE 3	-	>400 µg/mL
CC=NC(=N)c1nc(-c2cccc(OC)c2)n(Cc2ccccc2)n1	TYPE 3	cytopathic effect	>10 µg/mL
O=c1[nH]n2c(-c3cn(-c4ccccc4)nc3-c3ccccc3)nnc2s1	TYPE 3	cytopathic effect	>80 µg/mL
C=C(N=CC)c1nc(-c2ccccc2)n(C2O[C@H](CO)[C@@H](O)[C@H](O)[C@H]2O)n1	TYPE 3	cytopathic effect	>200 µg/mL
CC1(C)[C@@H](CO)CC[C@@]1(C)Cn1nnc2c(Cl)ncnc21	TYPE 3	cytopathic effect	>400 µg/mL
OCCCCn1nncc1Cn1ncc2c(SCc3ccccc3)ncnc21	TYPE 3	-	>400 µg/mL
CCOC(=O)Sc1nnc(-c2cn(-c3ccccc3)nc2-c2ccccc2)n1N	TYPE 3	cytopathic effect	>80 µg/mL
CON=C1C[C@H](n2cc(C)c(=O)[nH]c2=O)O[C@@H]1CO	-	cytopathic effect	>200 µg/mL
CC1(C)[C@@H](CO)CC[C@@]1(C)Cn1cnc2c(Cl)ncnc21	TYPE 3	cytopathic effect	>400 µg/mL
CC1(C)[C@@H](CCO)C[C@H]1n1nnc2c(N)nc(N)nc21	TYPE 3	cytopathic effect	300 µg/mL
CC=NC(=N)c1nc(-c2cccc(OC)c2)n(COCCO)n1	TYPE 3	cytopathic effect	>100 µg/mL
CC1(C)[C@@H](CO)CC[C@@]1(C)Cn1ccc(=O)[nH]c1=O	TYPE 3	cytopathic effect	>400 µg/mL
CC=NC(=N)c1nc(-c2cccc(C)c2)n(C/C=C/c2ccccc2)n1	TYPE 3	cytopathic effect	>10 µg/mL
CC1(C)[C@@H](CCO)C[C@H]1n1cnc2c(N)ncnc21	TYPE 3	cytopathic effect	>400 µg/mL
CC(=O)Nn1c(-c2cn(-c3ccccc3)nc2-c2ccccc2)n[nH]c1=S	TYPE 3	cytopathic effect	>80 µg/mL
CC1(C)[C@@H](CCO)C[C@H]1n1cnc2c(=O)[nH]cnc21	TYPE 3	cytopathic effect	>400 µg/mL
CNc1ncnc2c1cnn2Cc1cn(CCCCO)nn1	TYPE 3	-	>400 µg/mL

A second listing of 2 rows from above:

smiles	strain or isolate	method	value
C=C(N=CC)c1nc(-c2ccccc2)n(C2O[C@H](CO)[C@@H](O)[C@H](O)[C@H]2O)n1	TYPE 3	cytopathic effect	>200 µg/mL
CC1(C)[C@@H](CCO)C[C@H]1n1cnc2c(=O)[nH]cnc21	TYPE 3	cytopathic effect	>400 µg/mL